Compound potency records, mixed from different reports. Data source: NIAID ChemDB in PubChem.

Shared fields: growth or infection tests; agent: Hepatitis C virus; method: replicon; measure: EC50

An empty or dashed field is not shown.

smiles	strain	cells	value
NC(=S)Nc1ccc2c(c1)OC(c1ccccc1)O2	-	Huh7	<1 µM
COc1cc2c(=O)c(-c3nc(Cc4ccccc4)no3)cn(Cc3ccc(Cl)cc3)c2cc1OC	1b	-	>10 µM
CCOc1nc(N)nc2ccc(-c3cccc(NS(=O)(=O)c4ccc(NC(C)=O)s4)c3)nc12	-	Huh7	<0.3 µM
Nc1cc(Cn2c(C(=O)O)c(-c3ccc[nH]c3=O)c3c4occc4c(F)cc32)ccn1	-	-	<0.5 µM
NC(=S)NC(c1ccccc1)(c1ccccc1)c1ccccc1	-	Huh7	<1 µM
Nc1ncnc2c1c(I)cn2[C@@H]1O[C@H](CO)[C@@H](O)C1(F)F	1b	HCV replicon	0.06 µM
CC(=O)Nc1ccc(-c2ccc3nc(N)nc(N4CCS(=O)(=O)CC4)c3n2)cc1	-	Huh7	<0.3 µM
O=c1c(-c2noc(Cc3ccccc3)n2)cn(Cc2ccc(C(F)(F)F)cc2)c2cc(NCCOCCO)c(F)cc12	1b	-	<2 µM
Nc1ncnc2c1c(-c1ccco1)cn2[C@@H]1O[C@H](CO)[C@@H](O)C1(F)F	1b	HCV replicon	4.93 µM
CC1(C)O[C@H]2O[C@H](CO)[C@H](O)[C@H]2O1	-	-	10–100 µM
CS(=O)(=O)NC(=O)c1c(-c2ccc[nH]c2=O)c2c3c(ccc2n1Cc1ccccc1F)CCCO3	-	-	<1 µM
C[C@@H](Oc1cccc(NC(N)=S)c1)c1ccccc1	-	Huh7	<1 µM
CO[C@@H]1[C@H](O)[C@@H](/C=C/P(=O)(O)O)O[C@H]1n1ccc(N)nc1=O	-	-	>100 µM
NC(=S)NCCc1cccc(OCc2ccccc2)c1	-	Huh7	<1 µM
O=C(O)c1c(-c2ccc[nH]c2=O)c2c3occ(Cl)c3ccc2n1Cc1cc(F)ccc1F	-	-	<0.5 µM
NC(=S)Nc1cccc(CNc2ccccc2)c1	-	Huh7	<1 µM
CCOC(=O)/C=C/c1ccc(NC(=O)C2(NC(=O)c3ccc4c(C5CCCCC5)c5n(c4c3)CC(=O)Nc3ccccc3-5)CCCCC2)cc1	-	Huh7	0.01–1 µM
CN1CCN(c2ccc(CNc3nc(NCC(F)(F)F)c4nc(-c5ccc(F)cc5)ccc4n3)cc2)CC1	-	-	<0.1 µM
CN1CCN(c2cc3c(cc2F)c(=O)c(-c2noc(C(C)(C)c4ccccc4)n2)cn3Cc2cccc(C(F)(F)F)c2)CC1	1b	-	>10 µM
NC(=S)Nc1cccc(Oc2ccccc2)c1	-	Huh7	<1 µM
CN1CCN(c2cc3c(cc2F)c(=O)c(-c2noc(C(CCCCNC(=O)OC(C)(C)C)c4ccccc4)n2)cn3Cc2ccc(Cl)cc2)CC1	1b	-	<0.5 µM
CC(NC(N)=S)c1ccc(Oc2ccccc2)cc1	-	Huh7	<1 µM
CCOc1nc(NCC(F)(F)F)nc2ccc(-c3ccc(F)cc3)nc12	-	-	<0.1 µM
Nc1ncnc2c1c(-c1cc3ccccc3o1)cn2[C@@H]1O[C@H](CO)[C@@H](O)C1(F)F	1b	HCV replicon	1.08 µM
CCCCNC(=O)c1ccc(-c2ccc3nc(N)nc(OC(C)C)c3n2)cc1	-	Huh7	0.3–1 µM
Nc1nc2c(ncn2[C@@H]2O[C@H](/C=C/P(=O)(O)O)[C@@H](O)[C@H]2O)c(=O)[nH]1	-	-	10–100 µM
NC(=O)c1ccc(F)c(Cn2c(C(=O)O)c(-c3ccc[nH]c3=O)c3c4occc4c(F)cc32)c1	-	-	<0.5 µM
CC(C)(C)OC(=O)N1C/C=C\Cn2c(c(C3CCCCC3)c3ccc(C(=O)O)cc32)-c2ccccc21	-	Huh7	>10 µM
CN1CCN(c2cc3c(cc2F)c(=O)c(-c2noc(Cc4cc(F)cc(F)c4)n2)cn3Cc2ccc(Cl)cc2)CC1	1b	-	<10 µM
CCOc1nc(NCc2ccc(S(N)(=O)=O)cc2)nc2ccc(-c3cnc(N)s3)nc12	-	-	<0.1 µM
Nc1ncnc2c1c(-c1ccccc1)cn2[C@@H]1O[C@H](CO)[C@@H](O)C1(F)F	2a	HCV replicon	8.58 µM
CC(C)(C)OC(=O)N[C@@H]1CCCCC/C=C\[C@@H]2C[C@@]2(C(=O)NS(=O)(=O)C2CC2)NC(=O)[C@@H]2C[C@@H](OC(=O)N3Cc4cccc(F)c4C3)CN2C1=O	1a	-	0.002 µM
CCCCOC(=O)[C@H](C)NP(=O)(/C=C/[C@H]1O[C@@H](n2cnc3c(=O)[nH]c(N)nc32)[C@H](O)[C@@H]1O)N[C@@H](C)C(=O)OCCCC	-	-	>100 µM
COc1cc2c(=O)c(-c3noc(CC4CCCCC4)n3)cn(Cc3ccc(Cl)cc3)c2cc1OC	1b	-	>10 µM
CCS(=O)(=O)NC(=O)c1ccc2c(C3CCCCC3)c3n(c2c1)CC(C(=O)N1CCOCC1)=Cc1ccccc1-3	-	Huh7	0.01–1 µM
CCOc1nc(NCc2ccc(CS(=O)(=O)NC)cc2)nc2ccc(-c3ccc(F)cc3)nc12	-	-	<0.1 µM
CC(C)S(=O)(=O)NC(=O)c1c(-c2ccc[nH]c2=O)c2c3c(c(F)cc2n1Cc1cc2ccccc2nc1Cl)CCO3	-	-	<0.5 µM
Nc1ncnc2c1c(-c1ccsc1)cn2[C@@H]1O[C@H](CO)[C@@H](O)C1(F)F	2a	HCV replicon	7.38 µM
CCOc1nc(NCc2ccc(F)cc2)nc2ccc(-c3ccc(S(N)(=O)=O)cc3)nc12	-	-	<0.1 µM
O=C(NS(=O)(=O)C1CC1)c1c(-c2ccc[nH]c2=O)c2c3ncsc3ccc2n1Cc1cc2ccccc2nc1Cl	-	-	<0.5 µM
CCOc1nc(NCc2ccc(F)cc2F)nc2ccc(-c3ccc(C(=O)NC4CC4)cc3)nc12	-	-	<0.1 µM
Nc1ncnc2c1c(-c1ccoc1)cn2[C@H]1O[C@H](CO)[C@@H](O)C1(F)F	1a	HCV replicon	4.56 µM
CN1CCN(c2cc3c(cc2F)c(=O)c(-c2noc(Cc4ccc(F)cc4)n2)cn3Cc2ccccc2F)CC1	1b	-	<10 µM
CCc1coc2c1ccc1c2c(-c2ccc[nH]c2=O)c(C(=O)O)n1Cc1cc(F)ccc1F	-	-	>1.5 µM
COC(=O)C1=Cc2cc(Cl)ccc2-c2c(C3CCCCC3)c3ccc(C(=O)NS(=O)(=O)N(C)C)cc3n2C1	-	Huh7	0.01–1 µM
NC(=S)Nc1ccc(N2CCc3ccccc3C2)cc1	-	Huh7	<1 µM
Nc1ncnc2c1c(-c1ccsc1)cn2[C@@H]1O[C@H](CO)[C@@H](O)[C@H]1F	1b	HCV replicon	5.98 µM
CN1CCN(c2cc3c(cc2F)c(=O)c(-c2noc(Cc4ccc(F)cc4)n2)cn3CCN2CCOCC2)CC1	1b	-	>10 µM
Nc1cc(Cn2c(C(=O)O)c(-c3ccccc3F)c3c4ccccc4ccc32)ccn1	-	-	1–10 µM
O=C(O)c1ccc2c(C3CCCCC3)c3n(c2c1)CCCc1occc1-3	-	Huh7	1–10 µM
O=C(O)c1c(-c2ccc[nH]c2=O)c2c3occ(Cl)c3c(F)cc2n1Cc1cc2ccccc2nc1Cl	-	-	<0.5 µM
Nc1ncnc2c1c(-c1ccoc1)cn2[C@@H]1O[C@H](CO)[C@@H](O)[C@H]1F	1a	HCV replicon	4.37 µM
CCOC(=O)/C=C/c1ccc(NC(=O)C2(NC(=O)c3ccc4c(C5CCCCC5)c5n(c4c3)CCN(C(=O)OC(C)(C)C)c3ccccc3-5)CCCC2)cc1	-	Huh7	0.01–1 µM
Nc1ncnc2c1c(-c1ccc3ccccc3c1)cn2[C@@H]1O[C@H](CO)[C@@H](O)C1(F)F	2a	HCV replicon	0.81 µM
COC(=O)/C=C/c1ccc(NC(=O)C2(NC(=O)c3ccc4c(C5CCCCC5)c5n(c4c3)CC(C(=O)NCCN(C)C)=Cc3nccnc3-5)CCCC2)cc1	-	Huh7	0.01–1 µM
CCCCOC(=O)[C@H](C)NP(=O)(/C=C/[C@@H]1C[C@@H](O)[C@H](n2nnc3c(N)ncnc32)O1)N[C@@H](C)C(=O)OCCCC	-	-	<10 µM

A second listing of 8 rows from above:

smiles | strain | cells | value
NC(=S)Nc1cccc(CNc2ccccc2)c1 | - | Huh7 | <1 µM
O=C(NS(=O)(=O)C1CC1)c1c(-c2ccc[nH]c2=O)c2c3ncsc3ccc2n1Cc1cc2ccccc2nc1Cl | - | - | <0.5 µM
Nc1nc2c(ncn2[C@@H]2O[C@H](/C=C/P(=O)(O)O)[C@@H](O)[C@H]2O)c(=O)[nH]1 | - | - | 10–100 µM
COc1cc2c(=O)c(-c3nc(Cc4ccccc4)no3)cn(Cc3ccc(Cl)cc3)c2cc1OC | 1b | - | >10 µM
CCOc1nc(NCC(F)(F)F)nc2ccc(-c3ccc(F)cc3)nc12 | - | - | <0.1 µM
Nc1cc(Cn2c(C(=O)O)c(-c3ccccc3F)c3c4ccccc4ccc32)ccn1 | - | - | 1–10 µM
CS(=O)(=O)NC(=O)c1c(-c2ccc[nH]c2=O)c2c3c(ccc2n1Cc1ccccc1F)CCCO3 | - | - | <1 µM
NC(=O)c1ccc(F)c(Cn2c(C(=O)O)c(-c3ccc[nH]c3=O)c3c4occc4c(F)cc32)c1 | - | - | <0.5 µM

ECn is the concentration giving n% inhibition of infection, replication or growth. Two numbers with a dash give a range or band. Conditions beyond the fields shown may differ between rows.